Anti-infective test results gathered from many reports (values: NIAID ChemDB through PubChem).

All rows: growth or infection tests; species: HIV-1; endpoint: EC50

Blank or dashed fields: not listed here.

O=C/C=C/c1ccc2ccccc2n1 ; cells: CEM-4fx ; result: 0.5 µM
Nc1cn([C@H]2C[C@H](O)[C@@H](CO)O2)c(=O)nc1N ; cells: MT-4 ; result: >100 µM
COc1cccc2c1nc(-c1ccccc1F)n2Cc1cc(F)ccc1F ; strain: IIIB ; cells: MT-4 ; result: 0.003 µg/mL
CC1=CC=CC2C1=NC(c1c(F)cccc1F)N2Cc1c(Cl)cccc1Cl ; cells: CEM ; result: 3.2 µM
Nc1ccn([C@H]2CC[C@@H](CO)O2)c(=O)n1 ; strain: RF ; cells: CEM + CEM-SS ; result: 0.039 µM
C=CCn1c(-c2ccccc2F)nc2c(OC)cccc21 ; strain: IIIB ; cells: MT-4 ; result: 0.43 µg/mL
CCOc1nc(N)nc2c1ncn2CC1(OCP(=O)(O)O)CC1 ; result: >30 µM
COC(=O)Cc1cn([C@@H]2C=C[C@H](COP(=O)(N[C@@H](C)C(=O)OC)Oc3ccccc3)O2)c(=O)[nH]c1=O ; strain: IIIB ; cells: MT-4 ; result: >100 µM
Nn1c(SC(c2ccccc2)c2ccccc2)nnc1-c1ccc(Cl)cc1 ; mutations: RT-Y181C ; strain: NNRTI-resistant N119 ; cells: MT-4 ; result: >100 µM
COC(=O)[C@H](C)NP(=O)(OC[C@@H]1C=C[C@H](n2cc(CCCNC(=O)C(F)(F)F)c(=O)[nH]c2=O)O1)Oc1ccccc1 ; strain: IIIB ; cells: MT-4 ; result: 120 µM
[N-]=[N+]=N[C@@H]1C[C@@H](n2cc(F)c(N)nc2=O)O[C@H]1CO ; cells: CEM + CEM-SS ; result: 0.3 µM
CCCCCCCCCCCCNCC(O)C(O)C(OC1OC(CO)C(O)C(O)C1O)C(O)CO ; cells: CEM + CEM-SS ; result: 1 µM
Clc1ccc(-c2nnc3ssc4nnc(-c5ccc(Cl)cc5)n4n23)cc1 ; strain: IIIB ; cells: MT-4 ; result: >100 µM
CCOC(=O)N1CCC(=C(c2cc(C)c(OC)c(C(=O)OC)c2)c2cc(C)c(OC)c(C(=O)OC)c2)CC1 ; strain: RF ; cells: CEM + CEM-SS ; result: 1.16 µM
C=C1[C@H](n2cnc3c(N)ncnc32)O[C@@H]1CO ; strain: IIIB ; cells: MT-4 ; result: 0.6 µg/mL
CC(O)Cc1ccc2cccc(O)c2n1 ; cells: CEM-4fx ; result: 2.7 µM
Nc1nc2c(ncn2C2[C@H](CO)[C@H]2CO)c(=O)[nH]1 ; cells: ATH-8 + ATH8 ; result: >100 µg/mL
Cc1ccc(-c2nnc3sc(C(CC(C)C)N4C(=O)c5ccccc5C4=O)nn23)cc1 ; mutations: RT-Y181C ; strain: NNRTI-resistant N119 ; cells: MT-4 ; result: >100 µM
C(#Cc1cnc2ccccc2c1)CCC#Cc1cnc2ccccc2c1 ; cells: CEM-4fx ; result: 135 µM
O=c1[nH]c(=O)n([C@H]2CC[C@@H](CO)O2)cc1[N+](=O)[O-] ; cells: MT-4 ; result: >100 µM
Cc1ccc(C(=O)Nc2ccc(S(=O)(=O)O)c3cc(S(=O)(=O)O)cc(S(=O)(=O)O)c23)cc1NC(=O)c1cccc(NC(=O)Nc2cccc(C(=O)Nc3cc(C(=O)Nc4ccc(S(=O)(=O)O)c5cc(S(=O)(=O)O)cc(S(=O)(=O)O)c45)ccc3C)c2)c1 ; cells: CEM + CEM-SS ; result: 8 µM
CCOCn1c(Cc2ccccc2)c(CO)c(=O)[nH]c1=O ; strain: IIIB ; cells: MT-4 ; result: 22 µM
Cc1cc(C#N)cc(C)c1Oc1nc(Nc2ccc(C#N)cc2)nc(N)c1Br ; mutations: NL/181 ; cells: TZM-bl ; result: 0.0125 µM
CCCCN1C(=O)N(Cc2ccc3c(N)n[nH]c3c2)[C@H](Cc2ccccc2)[C@H](O)[C@@H](O)[C@H]1Cc1ccccc1 ; strain: RF ; cells: MT-2 ; result: <1 µM
C=C1C(n2cc(C)c(=O)[nH]c2=O)C=CC1(CO)CO ; cells: MT-4 ; result: 66 µM
C=CCC1CCn2c(=S)[nH]c3cccc(c32)C1 ; result: 1–2 µM
CN(C)c1ncnc2c1ncn2[C@@H]1O[C@H](CO)C[C@@H]1N=[N+]=[N-] ; strain: IIIB ; cells: MT-4 ; result: >115 µg/mL
Nc1ncc2ncn(CC3(OCP(=O)(O)O)CC3)c2n1 ; result: >30 µM
Nc1ccn([C@H]2CC[C@@H](CO)O2)c(=O)n1 ; strain: RF ; cells: C8166 ; result: 0.15 µM
CCOCn1c(Cc2ccccc2)c(C#N)c(=O)[nH]c1=O ; strain: IIIB ; cells: MT-4 ; result: 10 µM
[N-]=[N+]=N[C@H]1C[C@H](CO)O[C@@H]1n1cc(F)c(N)nc1=O ; cells: CEM + CEM-SS ; result: 7 µM
O=c1oc2c(c(O)c1C(c1ccccc1)C1CC1)CCCCCC2 ; cells: H9 ; result: 60 µM
CCOCn1c(Cc2ccc(Cl)cc2)c(CC)c(=O)[nH]c1=O ; strain: IIIB ; cells: MT-4 ; result: 44 µM
COc1cccc(Cn2c(-c3ccccc3F)nc3c(OC)cccc32)c1 ; strain: IIIB ; cells: MT-4 ; result: 0.032 µg/mL
CC(=O)Oc1cc(C(=O)Nc2ccc(S(=O)(=O)Nc3ccccc3Br)cc2)cc(OC(C)=O)c1OC(C)=O ; cells: MT-4 ; result: >25 µM
COc1cccc2c1nc(-c1ccccc1F)n2Cc1cccc2ccccc12 ; strain: IIIB ; cells: MT-4 ; result: 0.34 µg/mL
CC(=O)Oc1ccc(/C=C/C(=O)Nc2ccc(S(=O)(=O)Nc3cc(C)cc(C)c3)cc2)cc1OC(C)=O ; cells: MT-4 ; result: >13 µM
NC1=NCN([C@H]2C[C@H](O)[C@@H](CO)O2)C(=O)N1 ; strain: LAI ; cells: MT-2 ; result: 3 µM
COC[C@@H](c1ccc(C(F)(F)F)cc1)N1CCN(C2(C)CCN(C(=O)c3c(C)ncnc3C)CC2)C[C@@H]1C ; mutations: V535M ; strain: R14/S ; cells: PBMC ; result: 0.00045 µM
Nc1nc(=O)n(C2CC[C@@H](CO)O2)cc1[N+](=O)[O-] ; cells: MT-4 ; result: >100 µM
COC(=O)CCCC(=O)N1CCC(=C(c2cc(C)c(OC)c(C(=O)OC)c2)c2cc(C)c(OC)c(C(=O)OC)c2)CC1 ; strain: RF ; cells: CEM + CEM-SS ; result: 1.04 µM
Nc1ncnc2c1ncn2CC1(OCP(=O)(O)O)CC1 ; result: >30 µM
CCC/C=C/c1ccc2ccccc2n1 ; cells: CEM-4fx ; result: 7.9 µM
COC(=O)[C@H](C)NP(=O)(OC[C@@H]1C=C[C@H](n2cc(CC(=O)NCCCCCCCCCCCCNC(=O)C(F)(F)F)c(=O)[nH]c2=O)O1)Oc1ccccc1 ; strain: IIIB ; cells: MT-4 ; result: >10 µM
CC(=O)OC[C@H]1O[C@@H](Sc2nnc(-c3ccc(C)cc3)n2N)[C@H](OC(C)=O)[C@@H](OC(C)=O)[C@@H]1OC(C)=O ; mutations: RT-Y181C ; strain: NNRTI-resistant N119 ; cells: MT-4 ; result: >100 µM
COC(=O)[C@H](C)NP(=O)(OC[C@H]1C=C[C@@H](n2cc(CC(=O)NCCCCCCNC(=O)C(F)(F)F)c(=O)[nH]c2=O)O1)Oc1ccccc1 ; strain: IIIB ; cells: MT-4 ; result: >100 µM
C(=C\c1ccc2ccccc2n1)/c1ccc2ccccc2n1 ; cells: CEM-4fx ; result: >300 µM
COC(=O)c1cc(C(=C2CCN(C(=O)OC)CC2)c2cc(Cl)c(OC)c(C(=O)OC)c2)cc(Cl)c1OC ; strain: RF ; cells: CEM + CEM-SS ; result: 8.4 µM
O=C(/C=C/c1ccc(O)c(O)c1)Nc1ccc(S(=O)(=O)Nc2ccc(F)c(F)c2)cc1 ; cells: MT-4 ; result: 20 µM
COC(=O)[C@H](C)NP(=O)(OC[C@@H]1C=C[C@H](n2cc(CC(=O)NCCCCCCCCCCNC(=O)C(F)(F)F)c(=O)[nH]c2=O)O1)Oc1ccccc1 ; strain: IIIB ; cells: MT-4 ; result: >10 µM
CC(=O)Oc1cc(C(=O)Nc2ccc(S(=O)(=O)Nc3cccc(Cl)c3F)cc2)cc(OC(C)=O)c1OC(C)=O ; cells: MT-4 ; result: >25 µM
CCCCCCCCCCCCCCCC(=O)Nc1ccc2cc(S(=O)(=O)O)cc(S(=O)(=O)O)c2c1 ; cells: CEM + CEM-SS ; result: 50 µM
COC(=O)Cc1cn([C@H]2C=C[C@@H](CO)O2)c(=O)[nH]c1=O ; strain: IIIB ; cells: MT-4 ; result: >1000 µM
CCCCCCCCCCCCCC(=O)Nc1cc(S(=O)(=O)O)cc2cc(S(=O)(=O)O)cc(O)c12 ; cells: CEM + CEM-SS ; result: 150 µM
Nc1nc(=O)n([C@@H]2C[C@H](O)[C@@H](CO)O2)cc1[N+](=O)[O-] ; cells: MT-4 ; result: >100 µM
C=Cc1ccc2ccccc2n1 ; cells: CEM-4fx ; result: 7.2 µM
O=C(/C=C/c1ccc(O)c(O)c1)Nc1ccc(S(=O)(=O)Nc2ccccc2Br)cc1 ; cells: MT-4 ; result: 13 µM
C=C1C(n2ccc(=O)[nH]c2=O)C=CC1(CO)CO ; cells: MT-4 ; result: 58 µM
COc1ccc(-c2nnc(S[C@@H]3O[C@H](COC(C)=O)[C@@H](OC(C)=O)[C@H](OC(C)=O)[C@H]3OC(C)=O)n2N)cc1 ; strain: IIIB ; cells: MT-4 ; result: >100 µM
COc1cccc2c1nc(-c1ccccc1F)n2CC=C(Cl)Cl ; strain: IIIB ; cells: MT-4 ; result: 0.077 µg/mL
Cc1cn([C@H]2C[C@H](N=[N+]=[N-])[C@@H](CO)O2)c(=O)[nH]c1=O ; cells: MT-4 ; result: 0.009 µM
O=C(/C=C/c1ccc(O)c(O)c1)Nc1ccc(S(=O)(=O)Nc2ccc(Br)cc2)cc1 ; cells: MT-4 ; result: >15 µM
O=C(CCCCCCCCCCC(=O)Nc1ccc2cc(S(=O)(=O)O)cc(S(=O)(=O)O)c2c1)Nc1ccc2cc(S(=O)(=O)O)cc(S(=O)(=O)O)c2c1 ; cells: CEM + CEM-SS ; result: 38 µM
COc1ccc(N(CC(=O)NCCCc2ccccc2)S(=O)(=O)c2ccc(Cl)c([N+](=O)[O-])c2)cc1 ; mutations: N155H ; strain: IIIB ; result: 59 µM
CCCCCc1ccc2ccccc2n1 ; cells: CEM-4fx ; result: 2.9 µM
Nc1nc(Cl)c2ncn(CC3(OCP(=O)(O)O)CC3)c2n1 ; result: >30 µM
CCOC(=O)N1CCC(=C(c2cc(Cl)c(OC)c(C(=O)O)c2)c2cc(Cl)c(OC)c(C(=O)O)c2)CC1 ; strain: RF ; cells: CEM + CEM-SS ; result: 64.9 µM
Cc1nnc(N)nc1C/C=C/C(Sc1ccc(Cl)cc1)c1cccs1 ; strain: RF ; cells: MT-2 ; result: ~0.2 µM
O=C(/C=C(\O)c1ncn[nH]1)c1ccc(Cc2ccc(F)cc2)o1 ; strain: IIIB ; cells: MT-4 ; result: 0.2 µM
OC(c1ccc2ccccc2n1)C1CC1 ; cells: CEM-4fx ; result: 9.8 µM

A second listing of 9 rows from above:

| compound | mutations | strain | cells | result |
|---|---|---|---|---|
| Nc1ccn([C@H]2CC[C@@H](CO)O2)c(=O)n1 | - | RF | CEM + CEM-SS | 0.039 µM |
| CCC/C=C/c1ccc2ccccc2n1 | - | - | CEM-4fx | 7.9 µM |
| COc1cccc(Cn2c(-c3ccccc3F)nc3c(OC)cccc32)c1 | - | IIIB | MT-4 | 0.032 µg/mL |
| OC(c1ccc2ccccc2n1)C1CC1 | - | - | CEM-4fx | 9.8 µM |
| O=C(/C=C(\O)c1ncn[nH]1)c1ccc(Cc2ccc(F)cc2)o1 | - | IIIB | MT-4 | 0.2 µM |
| CCOc1nc(N)nc2c1ncn2CC1(OCP(=O)(O)O)CC1 | - | - | - | >30 µM |
| CCOC(=O)N1CCC(=C(c2cc(Cl)c(OC)c(C(=O)O)c2)c2cc(Cl)c(OC)c(C(=O)O)c2)CC1 | - | RF | CEM + CEM-SS | 64.9 µM |
| COC(=O)[C@H](C)NP(=O)(OC[C@@H]1C=C[C@H](n2cc(CC(=O)NCCCCCCCCCCNC(=O)C(F)(F)F)c(=O)[nH]c2=O)O1)Oc1ccccc1 | - | IIIB | MT-4 | >10 µM |
| Nc1nc(=O)n(C2CC[C@@H](CO)O2)cc1[N+](=O)[O-] | - | - | MT-4 | >100 µM |

ECn is the concentration giving n% inhibition of infection, replication or growth. Conditions beyond the fields shown may differ between rows. Two numbers with a dash give a range or band.